A mixed list of measured activities; the numbers were collected in NIAID ChemDB.

Shared fields: toxicity to cultured cells; cells: MDCK; measure: CC50

An empty or dashed field is not shown. Lines come from different laboratories, so protocols vary. Two numbers with a dash give a range or band. CCn is the concentration with n% toxicity to the cells.

{"compound": "Cc1ccc(O)c(C(=S)NC[C@@]2(C)C[C@@H](O)CC(C)(C)C2)c1", "result": "15 µg/mL"}
{"compound": "CCC(C)N1C2CCC23CC[C@H](NC(=O)c2cc(C)ccc2O)CC13", "result": "100 µg/mL"}
{"compound": "COc1cc(/C=C/c2ccc3c(c2)[C@H](c2cc(O)cc(O)c2)[C@@H](c2ccc(O)cc2)O3)cc(OC)c1", "method": "MTT", "result": "35.9 µg/mL"}
{"compound": "CN1C2CCC23CC[C@H](NC(=O)c2cc(Cl)ccc2O)CC13", "result": "100 µg/mL"}
{"compound": "Nc1nc(Cl)c(N)c(NCC2(CO)CC(Cc3ccccc3)C2)n1", "result": "0.46–0.92 µM"}
{"compound": "CC1(C)C[C@@H](O)C[C@](C)(CNC(=S)c2ccccc2O)C1", "result": "40 µg/mL"}
{"compound": "Cc1ccc(O)c(C(=O)N[C@@H]2CCC34CCC3N(C(C)C)C4C2)c1", "result": "100 µg/mL"}
{"compound": "Nc1ncc(Br)c(NCC2(CO)CC(CCc3ccccc3)C2)n1", "result": "0.46–0.77 µM"}
{"compound": "CC(C)N1C2CCC23CC[C@@H](NC(=O)c2cc(Cl)ccc2O)CC13", "result": "100 µg/mL"}
{"compound": "Oc1ccc([C@H]2Oc3ccc(/C=C/c4cc(O)cc(O)c4)cc3[C@@H]2c2cc(O)cc(O)c2)cc1", "method": "MTT", "result": "37.04 µg/mL"}
{"compound": "Cc1ccc(C)c(C(=S)NC[C@@]2(C)C[C@H](O)CC(C)(C)C2)c1", "result": "45 µg/mL"}
{"compound": "Nc1ncc(N)c(NCC2(CO)CC(CCc3ccccc3)C2)n1", "result": "22–49 µM"}
{"compound": "Cc1ccc(O)c(C(=S)NC[C@@]2(C)C[C@H](O)CC(C)(C)C2)c1", "result": "20 µg/mL"}
{"compound": "Nc1nc(Cl)c(/C=N/O)c(NCC2(CO)CC(CCc3ccccc3)C2)n1", "result": "0.18–0.26 µM"}
{"compound": "Cc1ccccc1C(=S)NC[C@@]1(C)C[C@@H](O)CC(C)(C)C1", "result": "2 µg/mL"}
{"compound": "Cc1ccc(O)c(C(=O)NCCN2[C@H](C)CC[C@@H]3CCCC[C@H]32)c1", "result": "20–30 µg/mL"}
{"compound": "CC1(C)C[C@@H](O)C[C@](C)(CNC(=S)c2cccc(C(F)(F)F)c2)C1", "result": "15 µg/mL"}
{"compound": "Nc1nc(Cl)cc(NCC2(CO)CC(Cc3ccccc3)C2)n1", "result": "0.36–2.1 µM"}
{"compound": "CC(C)N1C2CCC23CC[C@H](NC(=O)c2cc(Cl)ccc2O)CC13", "result": "100 µg/mL"}

The last 2 rows once more:

compound,method,result
Nc1nc(Cl)cc(NCC2(CO)CC(Cc3ccccc3)C2)n1,,0.36–2.1 µM
CC(C)N1C2CCC23CC[C@H](NC(=O)c2cc(Cl)ccc2O)CC13,,100 µg/mL